Anti-infective test results gathered from many reports (values: NIAID ChemDB through PubChem).

All rows: whole-cell or culture tests; organism: HIV-1; cell line: PBMC; endpoint: EC50

Blank or dashed fields: not listed here. Neighbouring rows are from separate reports. ECn is the concentration giving n% inhibition of infection, replication or growth.

SMILES,strain,changes,read by,result
Nc1nc(=O)n([C@H]2C=C[C@@H](CO)O2)cc1F,LAI,-,RT activity,<0.18 µM
Cc1ccc(-c2ccc3c(c2)C=C(C(=O)Nc2ccc(C[N+](C)(C)C4CCOCC4)cc2)CCC3)cc1,TB10 CLADE C,-,p24,<1 µM
Cc1ccc(NC(=O)CN2CCN(Cc3nc(-c4ccc(F)cc4)no3)CC2)cc1,92UG031,-,RT activity,11.7 µM
Nc1nccc2c1ncn2[C@@H]1C=C(CO)[C@@H](O)[C@H]1O,A012 POST-AZT,-,p24,0.0013 µM
COc1cc2c(OC3OC(C)C(OC4OC(CO)C(O)C(O)C4O)C(O)C3OC(C)=O)c3c(c(-c4ccc5c(c4)OCO5)c2cc1OC)C(=O)OC3,LAV,-,p24 / ELISA,0.641 µM
C[C@H]1[C@H](O)[C@@H](C)/C=C/C=C/C=C/C=C/C=C/C=C/C=C/[C@H](O[C@@H]2O[C@H](C)[C@@H](O)[C@H](N)[C@@H]2O)C[C@@H]2O[C@](O)(C[C@@H](O)C[C@@H](O)CC[C@H](O)[C@@H](O)C[C@@H](O)CC(=O)O[C@H]1C)C[C@H](O)[C@H]2C(=O)O,92TH026 CLADE B R5 (NSI),-,p24 / RT activity,3.7 µM
CCCc1cc(=O)oc2c3c(c4c(c12)OC(C)(C)CC4)O[C@@H](C)[C@H](C)[C@@H]3O,SLKA(SI),-,RT activity,0.3 µM
CC(C)CCC[C@@H](C)[C@H]1CCC2C3CCC4C[C@@H](OCc5cn([C@@H]6O[C@H](COS(=O)(=O)[O-])[C@@H](O[C@H]7O[C@H](COS(=O)(=O)[O-])[C@@H](O[C@H]8O[C@H](COS(=O)(=O)[O-])[C@@H](OS(=O)(=O)[O-])[C@H](OS(=O)(=O)[O-])[C@H]8OS(=O)(=O)[O-])[C@H](OS(=O)(=O)[O-])[C@H]7OS(=O)(=O)[O-])[C@H](OS(=O)(=O)[O-])[C@H]6OS(=O)(=O)[O-])nn5)CC[C@]4(C)C3CC[C@@]21C,HI92-206 isolate (X4/R5),-,p24 / ELISA / antigen,8 µg/mL
Clc1cc(CN2CCCNCCNCCCNCC2)cc(Cl)n1,R5 clinical isolate #1,-,p24,7.3 µM
Nc1nc(=O)n([C@H]2C=C[C@@H](CO)O2)cc1F,XM-Q151M,RT-A62V V75I F77C F116Y Q151M,p24,<26 µM
CCCCCCCCCCCCCCCCCCOCCOP(=O)(O)OC[C@@H]1OC[C@H](n2cc(C)c(=O)[nH]c2=O)O1,LAI,RT-M184V,RT activity,0.3 µM
CCO[C@@H]1Cc2cc(C(F)(F)F)ccc2C1N1CCN(C2(C)CCN(C(=O)c3c(C)ncnc3C)CC2)C[C@@H]1C,97ZA003,-,p24,0.0026 µM
CCCc1ccc(OP(=O)(N[C@@H](C)C(=O)OC)OC[C@@H]2OC[C@H](n3cc(C)c(=O)[nH]c3=O)O2)cc1,LAI,RT-M184V,RT activity,0.2 µM
Cc1cn([C@H]2C[C@H](N=[N+]=[N-])[C@@H](CO)O2)c(=O)[nH]c1=O,1617-1,-,p24 / ELISA,3.508 µM
Nc1nccc2c1ncn2[C@@H]1O[C@H](CO)[C@@H](O)[C@H]1O,14A-4/87 PRE-AZT,-,p24,0.122 µM
CCCCCCCCCCCCCCCCCCOCCOP(=O)(O)CO[C@H](CO)Cn1cnc2c(N)ncnc21,NRTI-MDR,K65R,p24 / ELISA,0.024 µM
N=C1Sc2ccccc2C2=NCCCN12,98IN022,-,β-galactosidase,0.4 µM
Cc1cn([C@H]2CO[C@@H](CO[P@@]3(=O)OCC[C@@H](c4cccc(Cl)c4)O3)O2)c(=O)[nH]c1=O,LAI,RT-M184V,RT activity,1.8 µM
CCCCCCCCCCCCCCCCCCOCCOP(=O)(O)CO[C@H](CO)Cn1cnc2c(N)nc(N)nc21,NRTI-MDR,V75I F77L F116Y Q151M,p24 / ELISA,0.016 µM
Cc1cn([C@H]2CO[C@@H](COP(=O)(N[C@@H](C)C(=O)OC(C)(C)C)Oc3ccccc3)O2)c(=O)[nH]c1=O,LAI,RT-M184V,RT activity,24.8 µM
CCCCCCCCCCCCCCCCCCOCCOP(=O)(O)CO[C@H](CO)Cn1ccc(N)nc1=O,NRTI-MDR,M41L T69SS L74V M184V L210W,p24 / ELISA,0.083 µM
Nc1nc(NC2CC2)c2ncn([C@H]3C=C[C@@H](CO)C3)c2n1,NL4-3 WT,-,p24,<2.5 µM
COC(=O)[C@H](C)NP(=O)(OC[C@@H]1OC[C@H](n2cc(C)c(=O)[nH]c2=O)O1)Oc1ccc(Br)cc1,LAI,RT-M184V,RT activity,0.15 µM
COC[C@@H](c1ccc(C(F)(F)F)cc1)N1CCN(C2(C)CCN(C(=O)c3c(C)ncnc3C)CC2)C[C@@H]1C,R14/S,V535M,-,0.00045 µM
O=C(CNC(=O)COc1ccccc1)NCc1ccc(C(=O)N2CCCCC2)cc1,93IN101,-,RT activity,16.3 µM
N=C1Sc2ccccc2C2=NCCCN12,96USNG31,-,MTS,0.14 µM
CCCCCCCCCCCCCCCCOCCCOP(=O)(N[C@H](C(=O)OC)C(C)C)OC[C@@H]1OC[C@H](n2cc(C)c(=O)[nH]c2=O)O1,LAI,RT-M184V,RT activity,2.8 µM

Repeating the first 2 entries:

SMILES | strain | changes | read by | result
Nc1nc(=O)n([C@H]2C=C[C@@H](CO)O2)cc1F | LAI | - | RT activity | <0.18 µM
Cc1ccc(-c2ccc3c(c2)C=C(C(=O)Nc2ccc(C[N+](C)(C)C4CCOCC4)cc2)CCC3)cc1 | TB10 CLADE C | - | p24 | <1 µM